Measured values from several laboratories, pooled; numbers as filed in NIAID ChemDB.

Shared fields: whole-cell or culture tests

ECn is the concentration giving n% inhibition of infection, replication or growth. An empty or dashed field is not shown. Fold resistance has wild type as its base. A number after MIC or MFC names an inhibition level or a share of isolates. Inhibition is in % at the dose shown (toxicity tests: loss of growth or viability). Conditions beyond the fields shown may differ between rows.

{"smiles": "CC(=O)Nc1ccc(C(=O)O)cc1", "endpoint": "inhibition", "tested at": "1000 µM", "organism": "Pneumocystis carinii", "result": "100%"}
{"smiles": "CC(C)CCN=C(N)c1ccc(N2CCN(c3ccccc3)CC2)cc1", "endpoint": "inhibition", "tested at": "10 µg/mL", "organism": "Pneumocystis carinii", "result": "91%"}
{"smiles": "CC(=O)N1CCN(c2ccc(OC[C@H]3CO[C@](Cn4ccnc4)(c4ccc(Cl)cc4Cl)O3)cc2)CC1", "endpoint": "MIC90", "strain or isolate": "Species complex", "organism": "Aspergillus versicolor", "result": "1 µg/mL"}
{"smiles": "Nc1nc2c(ncn2COC2COP(=O)(O)OC2)c(=O)[nH]1", "endpoint": "EC50", "strain or isolate": "Lymphotropic", "read by": "plaque count", "cell line": "GPE", "organism": "Guinea pig herpesvirus", "result": "2 µg/mL"}
{"smiles": "Nc1nc2c(ncn2COCCO)c(=O)[nH]1", "endpoint": "inhibition", "strain or isolate": "OKA", "read by": "plaque count", "cell line": "HELF", "tested at": "0.1 µg/mL", "organism": "Varicella zoster virus", "result": "3%"}
{"smiles": "Cc1c(S(=O)(=O)c2ccc(Cl)cc2)c(NC(=O)C(F)(F)F)n(Cc2ccc(Cl)cc2)c1C", "endpoint": "EC50", "strain or isolate": "Z29 (TYPE 6B)", "read by": "cytopathic effect", "cell line": "MOLT-3", "organism": "Human herpesvirus 6", "result": ">20 µg/mL"}
{"smiles": "O=c1[nH]c(=O)n([C@@H]2O[C@H](CO)[C@@H](O)[C@@H]2O)cc1/C=C/Cl", "endpoint": "inhibition", "strain or isolate": "Kawaguchi", "read by": "plaque count", "cell line": "HELF", "tested at": "0.01 µg/mL", "organism": "Varicella zoster virus", "result": "100%"}
{"smiles": "CCCCCCN=C(N)c1ccc(N2CCN(c3ccccc3)CC2)cc1", "endpoint": "inhibition", "tested at": "10 µg/mL", "organism": "Pneumocystis carinii", "result": "96%"}
{"smiles": "Nc1nc2c(ncn2COC(CO)CO)c(=O)[nH]1", "endpoint": "EC50", "strain or isolate": "68-1", "read by": "plaque count", "cell line": "HET", "organism": "Rhesus cytomegalovirus", "result": "7 µM"}
{"smiles": "CCCc1cc(=O)oc2c3c(c4c(c12)OC(C)(C)[C@H](O)[C@@H]4O)O[C@H](C)[C@@H](C)[C@@H]3O", "endpoint": "EC90", "strain or isolate": "Chicago-1", "read by": "virus yield", "cell line": "CV-1", "organism": "Measles virus", "result": "0.3 µg/mL"}
{"smiles": "C=Cc1cn([C@@H]2O[C@H](CO)[C@@H](O)[C@@H]2O)c(=O)[nH]c1=O", "endpoint": "inhibition", "strain or isolate": "YS", "read by": "plaque count", "cell line": "HELF", "tested at": "0.01 µg/mL", "organism": "Varicella zoster virus", "result": "0%"}
{"smiles": "Nc1nc(N)c2ncn(CCOCP(=O)(O)O)c2n1", "endpoint": "EC50", "strain or isolate": "Oka PFA-resistant/A", "read by": "cytopathic effect", "cell line": "HEL", "organism": "Varicella zoster virus", "result": "14.5 µM"}
{"smiles": "CCc1nc(N)nc(N)c1-c1ccc(Cl)cc1", "endpoint": "MIC", "strain or isolate": "DW6", "organism": "Mycobacterium avium complex", "result": "32 µg/mL"}
{"smiles": "CC(C)CN(C[C@@H](O)[C@H](Cc1ccccc1)NC(=O)CCCc1c[nH]c2ccccc12)S(=O)(=O)c1ccc(Br)cc1", "endpoint": "EC50", "read by": "MTT", "cell line": "CEM", "organism": "SIV", "result": "8.9 µM"}
{"smiles": "N#CC1C(c2ccc(Cl)cc2)Nc2sccc2S1(=O)=O", "endpoint": "EC50", "strain or isolate": "Z29 (TYPE 6B)", "read by": "cytopathic effect", "cell line": "MOLT-3", "organism": "Human herpesvirus 6", "result": "2.1 µg/mL"}
{"smiles": "CCCc1cc(=O)oc2cc(OS(=O)(=O)c3ccc(C)cc3)cc(OS(=O)(=O)c3ccc(C)cc3)c12", "endpoint": "EC50", "strain or isolate": "SA", "read by": "cytopathic effect", "cell line": "CV-1", "organism": "Measles virus", "result": "0.5 µg/mL"}
{"smiles": "Nc1nc2c(ncn2CCC(CO)CO)c(=O)[nH]1", "endpoint": "EC50", "strain or isolate": "Clinical isolate VZV-20", "read by": "cytopathic effect", "cell line": "HEL", "organism": "Varicella zoster virus", "result": "3.22 µM"}
{"smiles": "CN[C@H]1C[C@@H](n2cnc3c(N)ncnc32)[C@H](O)[C@@H]1O", "endpoint": "EC50", "cell line": "HFF", "organism": "West Nile virus", "result": ">100 µg/mL"}
{"smiles": "CCC(CC)[C@H](NC(C)=O)[C@@H]1[C@H](O)[C@@H](C(=O)O)C[C@H]1N=C(N)N", "endpoint": "EC50", "strain or isolate": "Influenza A/Victoria/3/75 (H3N2)", "cell line": "MDCK", "organism": "Influenza A virus", "result": "0.1 µM"}
{"smiles": "Cc1cn([C@@H]2O[C@H](CO)[C@@H](O)[C@@H]2O)c(=O)[nH]c1=O", "endpoint": "inhibition", "strain or isolate": "HIRAI", "read by": "plaque count", "cell line": "HELF", "tested at": "1 µg/mL", "organism": "Varicella zoster virus", "result": "100%"}
{"smiles": "CC(C)CN(C[C@@H](O)[C@H](Cc1ccccc1)NC(=O)CCCN1C(=O)c2ccccc2C1=O)S(=O)(=O)c1ccc(Br)cc1", "endpoint": "EC50", "read by": "MTT", "cell line": "CEM", "organism": "SIV", "result": "8.2 µM"}
{"smiles": "O=c1[nH]c(=O)n([C@H]2C[C@H](O)[C@@H](CO)O2)cc1/C=C/Br", "endpoint": "inhibition", "strain or isolate": "OKA", "read by": "plaque count", "cell line": "HELF", "tested at": "0.1 µg/mL", "organism": "Varicella zoster virus", "result": "10%"}
{"smiles": "Cc1oc(NC(=O)C(F)(F)F)c(S(=O)(=O)c2ccc(Cl)cc2)c1C", "endpoint": "EC50", "strain or isolate": "GS (TYPE 6A)", "read by": "cytopathic effect", "cell line": "HSB-2", "organism": "Human herpesvirus 6", "result": ">20 µg/mL"}
{"smiles": "N#Cc1cc([N+](=O)[O-])ccc1Oc1ccc(Cl)c(Cl)c1", "endpoint": "inhibition", "strain or isolate": "TYPE B4", "read by": "plaque count", "cell line": "VERO", "tested at": "2 µg/mL", "organism": "Coxsackie virus", "result": "93.2%"}
{"smiles": "Cc1cc(-c2cccc(S(=O)(=O)Nc3cc(NCC(C)C)c4n[nH]c(Cl)c4c3)c2)ccc1Cl", "endpoint": "MIC", "organism": "Streptococcus pyogenes", "result": "3.75 µM"}
{"smiles": "CC(=O)ONc1ccc(S(=O)(=O)N(Cc2ccccc2)C[C@@H](O)[C@H](Cc2ccccc2)NC(=O)[C@H](CC(C)C)N2C(=O)c3ccccc3C2=O)cc1", "endpoint": "EC50", "read by": "MTT", "cell line": "CEM", "organism": "SIV", "result": "8.6 µM"}
{"smiles": "CCCc1cc(=O)oc2cc(OS(=O)(=O)c3ccc(C)cc3)cc(O)c12", "endpoint": "EC50", "strain or isolate": "Chicago-1", "read by": "virus yield", "cell line": "CV-1", "organism": "Measles virus", "result": "<3 µg/mL"}
{"smiles": "CC(=O)ONc1ccc(S(=O)(=O)N(Cc2ccccc2)C[C@@H](O)[C@H](Cc2ccccc2)NC(=O)Cc2c[nH]c3ccccc23)cc1", "endpoint": "EC50", "read by": "MTT", "cell line": "CEM", "organism": "SIV", "result": "4.8 µM"}
{"smiles": "CC1(C)O[C@H]2[C@H](O)[C@@H](N=[N+]=[N-])C=C(c3ccc(C=O)cc3)[C@H]2O1", "endpoint": "inhibition", "strain or isolate": "ATCC 10231", "read by": "broth dilution / turbidity", "tested at": "250 µg/mL", "organism": "Candida albicans", "result": "100%"}
{"smiles": "O=C(O)P(=O)(O)O", "endpoint": "EC50", "strain or isolate": "Oka CF1368-resistant", "read by": "cytopathic effect", "cell line": "HEL", "organism": "Varicella zoster virus", "result": "38.6 µM"}
{"smiles": "N#CC1C(c2ccc(Cl)cc2)Nc2c(ccn2Cc2ccccc2)S1(=O)=O", "endpoint": "EC50", "strain or isolate": "Z29 (TYPE 6B)", "read by": "cytopathic effect", "cell line": "MOLT-3", "organism": "Human herpesvirus 6", "result": ">20 µg/mL"}
{"smiles": "O=C(O)CP(=O)(O)O", "endpoint": "EC50", "strain or isolate": "Oka BVDU-resistant", "read by": "cytopathic effect", "cell line": "HEL", "organism": "Varicella zoster virus", "result": "59.3 µM"}
{"smiles": "CC(C)C[C@@H](C(=O)N[C@@H](Cc1ccccc1)[C@H](O)CN(CC(C)C)S(=O)(=O)c1ccc(Br)cc1)N1C(=O)c2ccccc2C1=O", "endpoint": "EC50", "read by": "MTT", "cell line": "CEM", "organism": "SIV", "result": "7.6 µM"}
{"smiles": "CC1CCC(C(=O)N(c2cc(C#CC(C)(C)C)sc2C(=O)O)C2CCC(O)CC2)CC1", "endpoint": "fold resistance", "strain or isolate": "Con1 (gt 1b)", "read by": "luciferase", "cell line": "Huh7", "mutations": "L419M", "organism": "Hepatitis C virus", "result": "127.7"}
{"smiles": "CCN=C(N)c1ccc(N2CCN(c3ccccc3)CC2)cc1", "endpoint": "inhibition", "tested at": "50 µg/mL", "organism": "Pneumocystis carinii", "result": "83%"}

Repeating the first 4 entries:

smiles,endpoint,strain or isolate,read by,cell line,mutations,tested at,organism,result
CC(=O)Nc1ccc(C(=O)O)cc1,inhibition,,,,,1000 µM,Pneumocystis carinii,100%
CC(C)CCN=C(N)c1ccc(N2CCN(c3ccccc3)CC2)cc1,inhibition,,,,,10 µg/mL,Pneumocystis carinii,91%
CC(=O)N1CCN(c2ccc(OC[C@H]3CO[C@](Cn4ccnc4)(c4ccc(Cl)cc4Cl)O3)cc2)CC1,MIC90,Species complex,,,,,Aspergillus versicolor,1 µg/mL
Nc1nc2c(ncn2COC2COP(=O)(O)OC2)c(=O)[nH]1,EC50,Lymphotropic,plaque count,GPE,,,Guinea pig herpesvirus,2 µg/mL